Target: SARS-CoV-2 receptor binding domain (RBD) (SARS-CoV-2)
Experiment: BLI: mAb on anti-human Fc probe, dipped in the antigen

B1: CV2-55 (antibody, V domains shown)
VH: QVQLVESGGGVVQPGRSLRLSCAASGFTFSSYAMHWVRQAPGKGLEWVAVISYDGSNKYYADSVKGRFTISRDNSKNTLYLQMNSLRAEDTAVYYCARALTGNYYYGMDVWGQGTTVTVSS
VL: [skipping about 100 residues]
binding result: no binding

Reference: patent publication US20230212266A1 (FRED HUTCHINSON CANCER CENTER, published 2023)
